pKd: −log10 of the molar value.

Holding throughout (assay): flow cytometry on cells
In general terms: In flow cytometry, cells or beads pass a laser one at a time.

Test [1] has as its target αF1sc 2 EP1-42.
Test [2] deals with αF1sc 2 EP2-3.
In test [3] the target is αF1sc 8 EP1-19.

On to “biotinylated F1V dimer (recombinant fusion of Y. pestis F1 and V antigen) (from UniProt P26948 22-170)”, for which the pKd in test [1] was 6.79; in test [2], 6.84; in test [3], 7.44.

A word on the pKd: it is −log10 of the Kd, conventionally taken in molar units. Read a high pKd as a small Kd.
